# Test results as given in US20220323471A1 (priority 2019, published 2022).
# System: ZIKV-RVP
# Experiment: Time-of-drug-addition, ZIKV-RVP in HT1080 cells
# Settings: MOI 0.5, DGP 1 μM, Nanchangmycin 1 μM, NH4Cl 20 mM, 48 hours
row,Compound,inhibition of infection versus time of drug addition
1,"COc1cc2c(OC3OC(C)C(O)C(O)C3O)c3c(c(-c4ccc5c(c4)OCO5)c2cc1OC)C(=O)OC3 (stereo not drawn) [DGP, 6-deoxyglucose-diphyllin]",stronger when the drug was added at earlier time points
2,"Cl.N [NH4Cl, ammonium chloride, reference compound]",stronger when the drug was added at earlier time points
3,CO[C@H]1CC[C@@H](O[C@H]2C[C@H]([C@]3(C)CC[C@]4(C[C@H](O)[C@@H](C)[C@@H]([C@@H](C)/C=C(\C)C(=O)[C@H](C)C[C@H](C)C(=O)O)O4)O3)O[C@]3(O[C@@H]([C@H]4O[C@@](O)(CO)[C@H](C)C[C@@H]4C)C[C@@H]3C)[C@@H]2C)O[C@@H]1C [Nanchangmycin],stronger when the drug was added at earlier time points
